By UniProt entry, the sequences of proteins in these tests, tags left out.
UniProt Q01959, whole entry: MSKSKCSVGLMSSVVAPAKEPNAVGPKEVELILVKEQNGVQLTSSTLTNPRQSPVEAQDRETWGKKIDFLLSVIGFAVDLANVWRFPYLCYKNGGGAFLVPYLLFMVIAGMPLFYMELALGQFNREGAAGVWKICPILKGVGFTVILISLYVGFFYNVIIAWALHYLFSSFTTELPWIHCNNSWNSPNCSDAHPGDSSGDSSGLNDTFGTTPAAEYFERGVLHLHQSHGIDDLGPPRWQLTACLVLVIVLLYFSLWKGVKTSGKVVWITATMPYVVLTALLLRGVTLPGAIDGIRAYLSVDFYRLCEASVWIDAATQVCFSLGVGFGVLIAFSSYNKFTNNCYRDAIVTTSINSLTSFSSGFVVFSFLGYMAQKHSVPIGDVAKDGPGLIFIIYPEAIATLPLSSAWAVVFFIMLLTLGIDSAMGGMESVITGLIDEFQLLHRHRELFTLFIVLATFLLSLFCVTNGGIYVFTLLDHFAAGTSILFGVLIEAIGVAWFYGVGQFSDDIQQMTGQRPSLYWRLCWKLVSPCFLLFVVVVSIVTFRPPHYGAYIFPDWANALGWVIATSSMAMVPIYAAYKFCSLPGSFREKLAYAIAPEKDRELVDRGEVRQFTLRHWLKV

According to PMC4388869 (Journal of neuroimmune pharmacology : the official journal …, 2015):

Target: WT hDAT (Homo sapiens, UniProt Q01959)
Assay: [3H]WIN 35,428 binding assay, WT hDAT
Conditions: PC12 cell suspension, on ice 2 h

For “2beta-carbomethoxy-3-beta-(4-fluorophenyl)tropane [WIN35,428]”, the “Bmax of [3H]WIN 35,428 binding” value was 9.7 ± 1.6 pmol/10^5 cells.
